Results of unrelated studies side by side (data: NIAID ChemDB).

All rows: whole-cell or culture tests; species: Cytomegalovirus; read by: plaque count; endpoint: EC50

Neighbouring rows are from separate reports. ECn: concentration that inhibits the pathogen or its effect by n%.

{"structure": "NC1=NS(=O)(=O)N(Cc2ccccc2)c2nc(-c3ccc(Cl)cc3)[nH]c21", "strain": "DAVIS", "cell line": "HEL", "value": ">5 µg/mL"}
{"structure": "Nc1ncc2ncn(C[C@H]3CCC[C@H]3CO)c2n1", "strain": "AD169", "cell line": "HEL", "value": ">5 µg/mL"}
{"structure": "CN1c2ccccc2C(C)(C)C12C=Cc1cc([N+](=O)[O-])ccc1O2", "strain": "AD169", "cell line": "HEL", "value": ">12.4 µM"}
{"structure": "CC(C)(C)[Si](C)(C)OC[C@H]1O[C@@H](n2ccc(=O)[nH]c2=O)[C@H](O[Si](C)(C)C(C)(C)C)C1(O)C(Cl)C(N)=O", "cell line": "MRC-5", "value": ">5 µM"}
{"structure": "O=S(=O)(O)c1cc(O)c2c(NS(=O)(=O)c3ccc(-c4ccc(S(=O)(=O)Nc5cc(S(=O)(=O)O)cc6cc(S(=O)(=O)O)cc(O)c56)cc4)cc3)cc(S(=O)(=O)O)cc2c1", "strain": "Isolate T-1082", "cell line": "MRC-5", "value": "25 µM"}
{"structure": "CN1c2ccc([N+](=O)[O-])cc2C(C)(C)C12C=Cc1cc([N+](=O)[O-])ccc1O2", "strain": "DAVIS", "cell line": "HEL", "value": ">8.7 µM"}
{"structure": "CC1(C)[C@@H](CCO)C[C@H]1n1cnc2c(N)ncnc21", "strain": "DAVIS", "cell line": "HEL", "value": ">20 µg/mL"}
{"structure": "COc1ccc2c(c1)OC1(C=C2)N(C)c2ccc(Cl)cc2C1(C)C", "strain": "DAVIS", "cell line": "HEL", "value": "7 µM"}
{"structure": "CC(C)(C)[Si](C)(C)OC[C@H]1O[C@@H](n2ccc(=O)[nH]c2=O)[C@H](O[Si](C)(C)C(C)(C)C)[C@]12O[C@@H]2CO", "cell line": "MRC-5", "value": ">5 µM"}
{"structure": "CC1(C)[C@@H](CCO)C[C@H]1n1cnc2c(N)nc(N)nc21", "strain": "DAVIS", "cell line": "HEL", "value": ">50 µg/mL"}
{"structure": "CN1c2ccccc2C(C)(C)C12C=Nc1c(ccc3ccccc13)O2", "strain": "AD169", "cell line": "HEL", "value": ">9.8 µM"}
{"structure": "O=C(CCCCCCC(=O)Nc1cc(S(=O)(=O)O)cc2cc(S(=O)(=O)O)cc(O)c12)Nc1cc(S(=O)(=O)O)cc2cc(S(=O)(=O)O)cc(O)c12", "strain": "Isolate T-1082", "cell line": "MRC-5", "value": "10 µM"}
{"structure": "Nc1ncc2ncn([C@H]3CCC[C@H]3CO)c2n1", "strain": "DAVIS", "cell line": "HEL", "value": ">20 µg/mL"}
{"structure": "CC(=O)OCCOCN1c2nc(Cc3ccccc3)[nH]c2C(N)=NS1(=O)=O", "strain": "DAVIS", "cell line": "HEL", "value": ">50 µg/mL"}
{"structure": "Cc1ccc(C(=O)Nc2ccc(S(=O)(=O)O)c3cc(S(=O)(=O)O)cc(S(=O)(=O)O)c23)cc1NC(=O)c1cccc(NC(=O)Nc2cccc(C(=O)Nc3cc(C(=O)Nc4ccc(S(=O)(=O)O)c5cc(S(=O)(=O)O)cc(S(=O)(=O)O)c45)ccc3C)c2)c1", "strain": "Isolate T-1082", "cell line": "MRC-5", "value": "25 µM"}
{"structure": "CC1(C)[C@@H](CCO)C[C@H]1n1nnc2c(N)nc(N)nc21", "strain": "DAVIS", "cell line": "HEL", "value": ">20 µg/mL"}
{"structure": "COC(=O)/C=C1/[C@@H](O[Si](C)(C)C(C)(C)C)[C@H](n2ccc(=O)[nH]c2=O)O[C@@H]1CO[Si](C)(C)C(C)(C)C", "cell line": "MRC-5", "value": "1 µM"}
{"structure": "CC1(C)[C@@H](CCO)C[C@H]1n1cnc2c(=O)[nH]cnc21", "strain": "AD169", "cell line": "HEL", "value": ">50 µg/mL"}
{"structure": "Cc1cn([C@@H]2O[C@H](CO[Si](C)(C)C(C)(C)C)C3(O[C@H]3C(=O)NN)[C@H]2O[Si](C)(C)C(C)(C)C)c(=O)[nH]c1=O", "cell line": "MRC-5", "value": ">5 µM"}
{"structure": "Cc1cc(Sc2ccc(Cl)cc2)c2ncc(CSCCc3ccccc3)n2c1", "strain": "DAVIS", "value": "2 µg/mL"}
{"structure": "O=C(CCCCCCCCC(=O)Nc1cc(S(=O)(=O)O)cc2cc(S(=O)(=O)O)cc(O)c12)Nc1cc(S(=O)(=O)O)cc2cc(S(=O)(=O)O)cc(O)c12", "strain": "Isolate T-1095", "cell line": "MRC-5", "value": "65 µM"}
{"structure": "Nc1nc(N)c2ncn(C[C@H]3CCC[C@H]3CO)c2n1", "strain": "DAVIS", "cell line": "HEL", "value": ">50 µg/mL"}

Again, the opening 3 rows:

structure | strain | cell line | value
NC1=NS(=O)(=O)N(Cc2ccccc2)c2nc(-c3ccc(Cl)cc3)[nH]c21 | DAVIS | HEL | >5 µg/mL
Nc1ncc2ncn(C[C@H]3CCC[C@H]3CO)c2n1 | AD169 | HEL | >5 µg/mL
CN1c2ccccc2C(C)(C)C12C=Cc1cc([N+](=O)[O-])ccc1O2 | AD169 | HEL | >12.4 µM